The exact form of at least one protein or probe is not confirmed. At least one verdict rests on a figure or table, not on a statement of the authors.

For this series, the target named is BosR (rBosR) (UniProt O51592). The experiment in a line: EMSA. To be noted: 20 mM Hepes pH 7.5, 50 mM KCl, 1 mM MgCl2, 1 mM DTT, 5% glycerol, 100 ug/ml BSA, 50 ug/ml poly[d(A-T)], 30 fmol probe in 20 ul, 37 C 30 min; recombinant …; residues 1-176; label: digoxigenin 3' end. (A gel shift assay detects complexes by their altered migration in electrophoresis.)
Turning to “AGTGTAAAAATTATAATCAATTTTTTCATTAAATATCCTTTTTATTTATTATGGTATTAA (double strand) [ZM217 (PnapA2)]”, the binding result is given as “binds”. As for “ATTTTATATCCTATTTAGTTTAAAACCATTTTTAAATTAAATTGGCACAGTTTTTGCATG (double strand) [ZM212 (BS2 5')]”, the binding result was “binds”. To “TGGTTTAGATTTAATTTTTTTCTCAATTCAGCAATTTCTGAATATAGAATTTTCATATCT (double strand) [ZM215 (PnapA1)]” belongs “binds”.

The values are drawn from PMC3037356, “BosR (BB0647) Controls the RpoN-RpoS Regulatory Pathway and Virulence Expression in Borrelia burgdorferi by a Novel DNA-Binding Mechanism” (PLoS Pathogens, 2011).
